Anti-infective test results gathered from many reports (values: NIAID ChemDB through PubChem).

Shared fields: growth or infection tests; agent: Mycobacterium tuberculosis

MIC bound: limit read from a one-dose screen. Blank or dashed fields: not listed here. a–b is a range or a potency band. MIC50, MIC90 and the like: level of inhibition, or share of isolates inhibited. ECn is the concentration giving n% inhibition of infection, replication or growth. Neighbouring rows are from separate reports. Inhibition is in % at the dose shown (toxicity tests: loss of growth or viability).

SMILES,strain or isolate,changes,cell line,method,conditions,measure,dose,value
CCCCOc1ccccc1NC(=O)OCCN1CCCCC1,My 331/88,-,-,-,-,MIC,-,250 µM
Cc1nc2ccc(Br)cc2c(=O)n1NC(=O)c1cc(-c2ccccc2)nc2ccccc12,H37Rv,-,-,resazurin,-,MIC bound,-,>6.25 µg/mL
COc1cc2oc3cc(OC)c(OC)c(CC=C(C)C)c3c(=O)c2c(O)c1CC=C(C)C,H37Ra,-,-,resazurin,-,MIC,-,>200 µg/mL
CO[C@H]1/C=C/O[C@@]2(C)Oc3c(C)c(O)c4c(O)c(c(C=Nc5ccncc5)c(O)c4c3C2=O)NC(=O)/C(C)=C\C=C\[C@H](C)[C@H](O)[C@@H](C)[C@@H](O)[C@@H](C)[C@H](OC(C)=O)[C@@H]1C,H37Rv,-,-,-,-,EC50,-,2 µg/mL
CC1COc2c(N3CCN(C)CC3)c(F)cc3c(=O)c(C(=O)O)cn1c23,H37Rv,-,-,-,-,MBC,-,2 µg/mL
CCCCCCCCCCCCNCCCO,H37Rv,-,-,-,-,MIC,-,12.5 µg/mL
C=CCOc1cc2oc3cc(O)c(CCC(C)C)c(O)c3c(=O)c2c(CCC(C)C)c1OC,H37Ra,-,-,resazurin,-,MIC,-,0.78 µg/mL
CC1=CC(=O)C2=C(C)CCC3C(C)C(=O)OC3C12,H37Rv,-,-,BACTEC,-,inhibition,12.8 µg/mL,16%
CO[C@H]1/C=C/O[C@@]2(C)Oc3c(C)c(O)c4c(O)c(c(/C=N/N5C=NNC5)c(O)c4c3C2=O)NC(=O)/C(C)=C\C=C\[C@H](C)[C@H](O)[C@@H](C)[C@@H](O)[C@@H](C)[C@H](OC(C)=O)[C@@H]1C,H37Rv,-,-,-,-,EC50,-,>5 µg/mL
CCCCCOc1ccc(NC(=O)OCCN2CCCCC2)cc1,My 331/88,-,-,-,-,MIC,-,62.5 µM
COCC(=O)N1CC(N(Cc2ccc(C(F)(F)F)cc2)[C@H]2CC[C@]34OC[C@H](C(C)C)N3C(=O)CC[C@@H]4C2)C1,-,-,-,resazurin,-,MIC,-,0.5–5 µM
Cc1cc(NN)nc2n[nH]c(N)c12,H37Rv,-,-,BACTEC,-,inhibition,12.5 µg/mL,-26%
O=C(C1CCCCC1)N1CCN(S(=O)(=O)c2cccc3ccccc23)CC1,SRMV2.6,Inosine monophosphate dehydrogenase-resistant,-,resazurin,-,MIC90,-,>100 µM
CC1CNC(=O)C(=O)N1,H37Rv,-,-,BACTEC,-,MIC bound,-,>12.5 µg/mL
CO[C@H]1/C=C/O[C@@]2(C)Oc3c(C)c(O)c4c(O)c(c(/C=N/N5CCCC(O)C5)c(O)c4c3C2=O)NC(=O)/C(C)=C\C=C\[C@H](C)[C@H](O)[C@@H](C)[C@@H](O)[C@@H](C)[C@H](OC(C)=O)[C@@H]1C,H37Rv,-,-,-,-,EC50,-,0.5 µg/mL
CCOC(=O)[C@H]1O[C@@H]([C@@]2(C)O[C@]3(O[C@]4(C=C[C@H]3O)O[C@H]([C@@H](C)C(=O)[C@@H](C)[C@@H](O)[C@H](C)C[C@H](C)c3c(Cl)cc(C)c(O)c3C(=O)O)[C@@H](C)C[C@H]4C)[C@H](C)[C@H]2OC)C[C@H]1O,H37Rv,-,VERO,-,-,MIC,-,6.25 µg/mL
CCOc1ccc2cc(-n3nncc3COc3nc(-c4ccccn4)sc3C(=O)O)c(=O)oc2c1,H37Rv,-,-,resazurin,-,MIC,-,12.72 µM
O=C(C1CCCCC1)N1CCN(S(=O)(=O)c2ccc3ccccc3c2)CC1,SRMV2.6,Inosine monophosphate dehydrogenase-resistant,-,resazurin,-,MIC90,-,>100 µM
CCCCCCC(N)(CCCCCC)C(=O)Nn1c(C)ccc1C,H37Rv,-,-,BACTEC,-,inhibition,12.5 µg/mL,44%
CCCCCCCCCCCCN(CCO)CCO,H37Rv,-,-,-,-,MIC,-,50 µg/mL
CC(CN(C)N=O)C1CCC2C3CC=C4CC(O)CCC4(C)C3CCC12C,H37Rv,-,-,BACTEC,-,inhibition,12.5 µg/mL,0%
CCCCCCCCCCCCNC(C)(C)CO,H37Rv,-,-,-,-,MIC,-,12.5 µg/mL
CCCCCCCOc1ccc(NC(=O)OCCN2CCCCC2)cc1,My 331/88,-,-,-,-,MIC,-,16 µM
NNC(=O)c1ccncc1,M16,-,-,resazurin,-,MIC,-,2 µg/mL
O=C(NCc1ccc(C(F)(F)F)cc1)c1c(O)cc(Br)cc1Br,My 331/88,-,-,-,-,MIC,-,62.5 µg/mL
CCOc1ccc2cc(-n3nncc3COc3nc(-c4ccccc4)sc3C=O)c(=O)oc2c1,H37Rv,-,-,resazurin,-,MIC,-,26.34 µM
CC(C)[C@H]1CO[C@]23CC[C@H](N(Cc4ccc(C(F)(F)F)cc4)C4CCN(C(=O)OC(C)(C)C)CC4)C[C@H]2CCC(=O)N13,-,-,-,resazurin,-,MIC,-,<0.5 µM
CC(C)(C)c1ccc(CNC(=S)c2c(O)cc(Cl)cc2Cl)cc1,My 331/88,-,-,-,-,MIC,-,32 µg/mL
CC(C)[C@H]1CO[C@]23CC[C@H](N(Cc4ccc(C(F)(F)F)cc4)C4CCC(F)(F)CC4)C[C@H]2CCC(=O)N13,-,-,-,resazurin,-,MIC,-,0.5–5 µM
CCCCCCCCCCCCCCNC(C)(C)CO,H37Rv,-,-,-,-,MIC,-,6.25 µg/mL
NC1CCN(c2nc3c(cc2F)c(=O)c(C(=O)O)cn3-c2ccc(F)cc2F)C1,ATCC 35827,-,-,-,-,MIC,-,>8 µg/mL
CC[C@@H](CO)NCCN[C@@H](CC)CO,M16,MDR,-,resazurin,-,MIC,-,>8 µg/mL
CO[C@H]1/C=C/O[C@@]2(C)Oc3c(C)c(O)c4c(O)c(c(C=Nc5cccc(C)c5)c(O)c4c3C2=O)NC(=O)/C(C)=C\C=C\[C@H](C)[C@H](O)[C@@H](C)[C@@H](O)[C@@H](C)[C@H](OC(C)=O)[C@@H]1C,H37Rv,-,-,-,-,EC50,-,5 µg/mL
Oc1cc(Br)ccc1C(=S)NCc1cccc(Br)c1,My 331/88,-,-,-,-,MIC,-,1 µg/mL
CN(C)C(=S)SCN1C(=O)c2ccccc2C1=O,KM-R,-,-,-,-,MIC,-,1.6 µg/mL
Cc1ccc(CNC(=S)c2cc(C)ccc2O)cc1,My 331/88,-,-,-,-,MIC,-,0.125 µg/mL
CO[C@H]1/C=C/O[C@@]2(C)Oc3c(C)c(O)c4c(O)c(c(/C=N/N5CCN(C)CC5)c(O)c4c3C2=O)NC(=O)/C(C)=C\C=C\[C@H](C)[C@H](O)[C@@H](C)[C@@H](O)[C@@H](C)[C@H](OC(C)=O)[C@@H]1C,H37Rv,-,-,-,-,EC50,-,0.5 µg/mL
Oc1cc(Br)ccc1C(=S)NCc1ccc(Br)cc1,My 331/88,-,-,-,-,MIC,-,1 µg/mL
COC(=O)c1sc(-c2ccccc2)nc1OCc1cnnn1-c1cc2ccc(O)cc2oc1=O,H37Rv,-,-,resazurin,-,MIC,-,26.23 µM
Cc1ccc(O)c(C(=S)NCc2cccc([N+](=O)[O-])c2)c1,My 331/88,-,-,-,-,MIC,-,2 µg/mL
CO[C@H]1/C=C/O[C@@]2(C)Oc3c(C)c(O)c4c(O)c(c5[nH]c(-c6ccccc6)nc5c4c3C2=O)NC(=O)/C(C)=C\C=C\[C@H](C)[C@H](O)[C@@H](C)[C@@H](O)[C@@H](C)[C@H](OC(C)=O)[C@@H]1C,H37Rv,-,-,resazurin,-,MIC bound,-,<6.25 µg/mL
Cc1c[nH]c(C(=O)O)c1-c1ccc2c(-c3ccccc3)nc3ccccc3n12,H37Rv,-,-,-,-,MIC,-,>12.5 µg/mL
O=Cc1sc(-c2ccccn2)nc1OCc1cnnn1-c1cc2ccc(O)cc2oc1=O,H37Rv,-,-,resazurin,-,MIC,-,112 µM
COC1(CO)C(=O)N(C)CC(=O)N1C,TAC-R,-,-,-,-,MIC,-,6.3 µg/mL
CCCCOc1ccc(NC(=O)OCCN2CCCCC2)cc1,My 331/88,-,-,-,-,MIC,-,62.5 µM
CC(NC(=O)CNC(=O)c1cnc2ccccc2n1)C(=O)O,H37Rv,-,-,BACTEC,-,MIC bound,-,>12.5 µg/mL
Cc1ccc(CNC(=S)c2ccccc2O)cc1,My 331/88,-,-,-,-,MIC,-,0.25 µg/mL
Nc1ccc2cc(-n3nncc3COc3nc(-c4ccncc4)sc3C(=O)O)c(=O)oc2c1,H37Rv,-,-,resazurin,-,MIC,-,13.51 µM
CN[C@@H]1[C@H](O[C@H]2[C@H](O[C@H]3[C@H](O)[C@@H](O)[C@H](N=C(N)N)[C@@H](O)[C@@H]3N=C(N)N)O[C@@H](C)[C@]2(O)C=O)O[C@@H](CO)[C@H](O)[C@H]1O,M-3,MDR,-,resazurin,-,MIC,-,>8 µg/mL
C=C1OC(C2CCCCC2)=C(C(=O)OCC)C1C,H37Rv,-,-,BACTEC,-,MIC bound,-,>12.5 µg/mL
CO[C@H]1/C=C/O[C@@]2(C)Oc3c(C)c(O)c4c(=O)c(c5oc6cc(N7CCN(CC(C)C)CC7)cc(=O)c6nc5c4c3=C2O)NC(=O)/C(C)=C\C=C\[C@H](C)[C@H](O)[C@@H](C)[C@@H](O)[C@@H](C)[C@H](OC(C)=O)[C@@H]1C,FUJII,-,-,-,inside macrophages,inhibition,5 µg/mL,96.1%
CCCC(=O)Oc1cc2oc3cc(OC(=O)CCC)c(OC)c(CCC(C)C)c3c(=O)c2c(O)c1CCC(C)C,H37Ra,-,-,resazurin,-,MIC,-,25 µg/mL
O=C(O)c1sc(-c2cccnc2)nc1OCc1cnnn1-c1cc2ccc(O)cc2oc1=O,H37Rv,-,-,resazurin,-,MIC,-,53.95 µM
CC(C)[C@H]1CO[C@]23CC[C@H](N(Cc4ccc(C(F)(F)F)cc4)C4CN(C(=O)OC(C)(C)C)C4)C[C@H]2CCC(=O)N13,-,-,-,resazurin,-,MIC,-,<0.5 µM
N#C/C(=C\NC(=S)c1ccncc1)c1nc2ccccc2s1,H37Rv,-,-,resazurin,-,MIC bound,-,>6.25 µg/mL
NC1CCN(c2c(F)cc3c(=O)c(C(=O)O)cn(C4CC4)c3c2Cl)C1,H37Rv,-,-,-,-,MBC,-,0.125 µg/mL
CC(C)[C@H]1CO[C@]23CC[C@H](N(Cc4ccc(C(F)(F)F)cc4)C4CCC(C)(O)CC4)C[C@H]2CCC(=O)N13,-,-,-,resazurin,-,MIC,-,<0.5 µM
COc1cc2c(cc1OC)CN1CCc3cc(OC)c(OC)cc3[C@@H]1C2,H37Rv,-,-,BACTEC,-,inhibition,128 µg/mL,96%
COc1c(O)cc2oc3cc(O)c(CCC(C)C)c(O)c3c(=O)c2c1CCC(C)C,M-4,MDR,-,resazurin,-,MIC,-,1.56 µg/mL
O=C(NCc1ccccc1)N1CCN(S(=O)(=O)c2cccc3cnccc23)CC1,SRMV2.6,Inosine monophosphate dehydrogenase-resistant,-,resazurin,-,MIC90,-,>100 µM
Cc1c[nH]c(C(=O)NN)c1-c1ccc2c(-c3ccccc3)nc3ccccc3n12,H37Rv,-,-,-,-,inhibition,12.5 µg/mL,86%
Cn1c(O)c(N=NC(=O)Cc2c[nH]c3ccccc23)c2ccccc21,H37Rv,-,-,BACTEC,-,inhibition,12.8 µg/mL,17%
CCOc1cc2oc3cc(O)c(CCC(C)C)c(O)c3c(=O)c2c(CCC(C)C)c1OC,M16,-,-,resazurin,-,MIC,-,3.12 µg/mL
CCOc1ccc2cc(-n3nncc3COc3nc(-c4ccccc4)sc3C(=O)OC)c(=O)oc2c1,H37Rv,-,-,resazurin,-,MIC,-,24.79 µM
CC(=O)O[C@@H]1C[C@H]2O[C@@H]3C=C(C)CC[C@]3(C)[C@]1(C)[C@]21CO1,H37Rv,-,-,BACTEC,-,MIC bound,-,>12.8 µg/mL
COC(=O)c1sc(-c2ccncc2)nc1OCc1cnnn1-c1cc2ccc(N)cc2oc1=O,H37Rv,-,-,resazurin,-,MIC,-,26.23 µM
CCOC(=O)c1c[nH]c(C(=O)OCC)c1-c1cc2c(-c3ccccc3)nc3ccccc3n2c1,H37Rv,-,-,-,-,EC50,-,<12.5 µg/mL
NNC(=O)C(N)Cc1ccc(O)cc1,H37Rv,-,-,BACTEC,-,MIC bound,-,>12.5 µg/mL
C[C@H]1C[C@H](N)CN1c1cc2c(cc1F)c(=O)c(C(=O)O)cn2-c1ccc(F)cc1F,ATCC 35830,-,-,-,-,MIC,-,1 µg/mL
Cn1c2nc(=O)n(-c3ccccc3)c(=O)c-2nc2ccccc21,H37Rv,-,-,BACTEC,-,MIC bound,-,>12.5 µg/mL
CO[C@H]1/C=C/O[C@@]2(C)Oc3c(C)c(O)c4c(O)c(c(/C=N/N5CCN(C)CC5)c(O)c4c3C2=O)NC(=O)/C(C)=C\C=C\[C@H](C)[C@H](O)[C@@H](C)[C@@H](O)[C@@H](C)[C@H](OC(C)=O)[C@@H]1C,M27,MDR,-,resazurin,-,MIC,-,>2 µg/mL
CCOc1ccccc1N(CCN(C)C)C(=O)C(c1ccccc1)c1ccccc1.Cl,H37Rv,-,-,BACTEC,-,inhibition,128 µg/mL,100%
CC(C)[C@H]1CO[C@]23CC[C@H](N(Cc4ccc(C(F)(F)F)cc4)C4CCNCC4)C[C@H]2CCC(=O)N13,-,-,-,resazurin,-,MIC,-,<0.5 µM
CC#CC#C/C=C1\C=CC2(OC=CC2OC(C)=O)O1,RMP-R,-,-,-,-,MIC,-,12.5 µg/mL
COc1cccc(CNC(=O)N2CCN(S(=O)(=O)c3cccc4cnccc34)CC2)c1,SRMV2.6,Inosine monophosphate dehydrogenase-resistant,-,resazurin,-,MIC90,-,>100 µM

A second listing of 4 rows from above:

SMILES | strain or isolate | changes | cell line | method | conditions | measure | dose | value
CCCCOc1ccc(NC(=O)OCCN2CCCCC2)cc1 | My 331/88 | - | - | - | - | MIC | - | 62.5 µM
Oc1cc(Br)ccc1C(=S)NCc1ccc(Br)cc1 | My 331/88 | - | - | - | - | MIC | - | 1 µg/mL
O=C(C1CCCCC1)N1CCN(S(=O)(=O)c2ccc3ccccc3c2)CC1 | SRMV2.6 | Inosine monophosphate dehydrogenase-resistant | - | resazurin | - | MIC90 | - | >100 µM
COC1(CO)C(=O)N(C)CC(=O)N1C | TAC-R | - | - | - | - | MIC | - | 6.3 µg/mL